Results of unrelated studies side by side (data: NIAID ChemDB).

All rows: growth or infection tests; agent: Mycobacterium tuberculosis

ECn: concentration that inhibits the pathogen or its effect by n%.

smiles | method | changes | strain | measure | result
COc1cc([C@H]2OC[C@]3(O)[C@@H](c4ccc(O)c(OC)c4)OC[C@H]23)ccc1O |  |  | H37Rv | MIC | >128 µg/mL
CO[C@H]1/C=C/O[C@@]2(C)Oc3c(C)c(O)c4c(O)c(c(/C=N/N5CCN6CCCCC6C5)c(O)c4c3C2=O)NC(=O)/C(C)=C\C=C\[C@H](C)[C@H](O)[C@@H](C)[C@@H](O)[C@@H](C)[C@H](OC(C)=O)[C@@H]1C |  |  |  | MIC | 0.08 µg/mL
NC(=S)c1cc(SCc2cc([N+](=O)[O-])cc([N+](=O)[O-])c2)ccn1 |  |  | CNCTC MY331/88 | MIC | 3.98 µM
Cc1ccc2[nH]c(=O)oc(=O)c2c1 | BACTEC |  | H37Rv | MIC bound | >6.25 µg/mL
Cc1ccc(CSc2ccnc(C#N)c2)cc1 |  |  | CNCTC MY331/88 | MIC | 61.66 µM
COc1cc(/C=C/CO)cc2cc(-c3ccc4c(c3)OCO4)oc12 | broth dilution / turbidity |  | H37Ra ATCC 25177 | MIC | >50 µg/mL
CCCCCCCCc1ccc2nc3n(c(=O)c2c1)-c1ccc(Cl)cc1C3=O |  |  | H37Rv | MIC | 1 µg/mL
N#Cc1cc(SCc2ccc(Cl)c(Cl)c2)ccn1 |  |  | CNCTC MY331/88 | MIC | 61.66 µM
COc1cc(/C=C/C2c3c(ccc(OC)c3OC)-c3ccc4cc5c(cc4c3N2C)OCO5)ccc1O | broth dilution / turbidity |  | H37Rv (ATCC 27294) | MIC | 50 µg/mL
O=C1c2cc(/C=C/CCCCO)ccc2-n2c1nc1ccncc1c2=O |  |  | H37Rv | MIC | 0.5 µg/mL
Sc1cccc2cccnc12 |  |  | 2 strains | MIC | 31 µM
CO[C@H]1/C=C/O[C@@]2(C)Oc3c(C)c(O)c4c(O)c(c5c(c4c3C2=O)NC2(CCN(CC(C)C)CC2)N=5)=NC(=O)/C(C)=C\C=C\[C@H](C)[C@H](O)[C@@H](C)[C@@H](O)[C@@H](C)[C@H](OC(C)=O)[C@@H]1C |  |  |  | MIC | 0.04 µg/mL
CO[C@H]1/C=C/O[C@@]2(C)Oc3c(C)c(O)c4c(O)c(c(/C=N/N=C/N5CCCCC5)c(O)c4c3C2=O)NC(=O)/C(C)=C\C=C\[C@H](C)[C@H](O)[C@@H](C)[C@@H](O)[C@@H](C)[C@H](OC(C)=O)[C@@H]1C |  |  | isolates 4 | MIC | 50 µg/mL
NC(=S)c1cc(SCc2cccc(F)c2)ccn1 |  |  | CNCTC MY331/88 | MIC | 7.94 µM
CCCCCCCCc1ccc2c(c1)C(=O)c1nc3cc(N4CCN(C)CC4)ccc3c(=O)n1-2 |  |  | H37Rv | MIC | 0.13 µg/mL
CN[C@@H]1[C@H](O[C@H]2[C@H](O[C@H]3[C@H](O)[C@@H](O)[C@H](N=C(N)N)[C@@H](O)[C@@H]3N=C(N)N)O[C@@H](C)[C@]2(O)C=O)O[C@@H](CO)[C@H](O)[C@H]1O | broth dilution / visual reading |  |  | MIC | 40 µg/mL
C=C(C)[C@@H]1CC[C@]2(CO)CC[C@]3(C)C(CCC4[C@@]5(C)CC[C@H](O)C(C)(C)C5CC[C@]43C)C12 |  |  | H37Rv | MIC | 30 µg/mL
NC(=S)c1cc(SCc2cccc(Cl)c2)ccn1 |  |  | CNCTC MY331/88 | MIC | 7.94 µM
COC(=O)/C=C/c1cc(OC)c2oc(-c3ccc4c(c3)OCO4)cc2c1 | broth dilution / turbidity |  | H37Ra ATCC 25177 | MIC | >50 µg/mL
COc1cc(/C=C/C(=O)O)ccc1O |  |  | H37Rv | MIC | >128 µg/mL
CO[C@H]1/C=C/O[C@@]2(C)Oc3c(C)c(O)c4c(O)c(c(/C=N/N5CCN(C6CCCC6)CC5)c(O)c4c3C2=O)NC(=O)/C(C)=C\C=C\[C@H](C)[C@H](O)[C@@H](C)[C@@H](O)[C@@H](C)[C@H](OC(C)=O)[C@@H]1C |  |  |  | MIC | 0.08 µg/mL
N#Cc1cc(SCc2ccc(F)cc2)ccn1 |  |  | CNCTC MY331/88 | MIC | 61.66 µM
Brc1ccc2ncn3c4ccccc4nc3c2c1 | resazurin |  | H37Rv | MIC99 | 3.125 µg/mL
COc1ccc2c(c1OC)C(CC(C)=O)N(C)c1c-2ccc2cc3c(cc12)OCO3 | broth dilution / turbidity |  | H37Ra ATCC 25177 | MIC | >50 µg/mL
O=C1c2cc(F)ccc2-n2c1nc1ccncc1c2=O |  |  | H37Rv | MIC | 0.5 µg/mL
C[C@@H]1CN(c2c(F)c(N)c3c(=O)c(C(=O)O)cn(C4CC4)c3c2F)C[C@H](C)N1 |  |  | INH PAS SM resistant | MIC | 0.1 µg/mL
CCc1nc2ccccc2c2nc3cc4ccccc4cc3n12 | resazurin |  | H37Rv | MIC99 | 25 µg/mL
O=CNc1ccc(Cl)c(C(F)(F)F)c1 | BACTEC |  | H37Rv | MIC bound | >12.5 µg/mL
NNC(=O)c1ccncc1 | resazurin |  | H37Rv | MIC99 | 0.098 µg/mL
N#Cc1cc(SCc2ccc(Br)cc2)ccn1 |  |  | CNCTC MY331/88 | MIC | 30.9 µM
CCCCCCCCc1ccc2c(c1)C(=O)c1nc3ccncc3c(=O)n1-2 |  |  | TN913RFLP:C (DRUG sensitive) | MIC | ≤0.015 µg/mL
COc1ccc(-c2oc3cc(O)c(OC)c(O)c3c(=O)c2OC)cc1 |  |  | H37Rv | MIC | 46.2 µg/mL
CCOC(=O)c1c(NC(=O)c2c(F)c(F)c(F)c(F)c2F)sc2c1CCOC2 | turbidity | katG Y155 truncation mutant | H37Rv | EC50 | 0.18 µM
Cc1nc2ccccc2c2nc3ccccc3n12 | resazurin |  | H37Rv | MIC99 | 1.56 µg/mL
C[C@@H]1CC[C@]2(C(=O)O)CC[C@]3(C)C(=CCC4[C@@]5(C)CC[C@H](O)[C@](C)(CO)C5CC[C@]43C)C2[C@H]1C |  |  | H37Rv | MIC | 15.5 µg/mL
CC[C@@H](CO)NCCN[C@@H](CC)CO | resazurin |  | H37Rv | MIC99 | 1.56 µg/mL
COc1cc2c(cc1OC)C(CC(C)=O)N(C)c1c-2ccc2cc3c(cc12)OCO3 | broth dilution / turbidity |  | H37Rv (ATCC 27294) | MIC | 12.5 µg/mL
CCc1nc2ccccc2c2nc3ccccc3n12 | resazurin |  | H37Rv | MIC99 | 101.1 µM
CC1CN(C(=O)OC(C)(C)C)CCN1c1cc2nc3n(c(=O)c2cc1F)-c1ccc(I)cc1C3=O |  |  | H37Rv | MIC | >4 µg/mL
Cc1nc2ccccc2c2nc3cc(Cl)c(Cl)cc3n12 | resazurin |  | H37Rv | MIC99 | 6.25 µg/mL
CC1(C)CC[C@]2(C(=O)O)CC[C@]3(C)C(=CCC4[C@@]5(C)CC[C@H](O)C(C)(C)C5CC[C@]43C)C2C1 |  |  | H37Rv | MIC | 28.7 µg/mL

Again, the opening 2 rows:

smiles,method,changes,strain,measure,result
COc1cc([C@H]2OC[C@]3(O)[C@@H](c4ccc(O)c(OC)c4)OC[C@H]23)ccc1O,,,H37Rv,MIC,>128 µg/mL
CO[C@H]1/C=C/O[C@@]2(C)Oc3c(C)c(O)c4c(O)c(c(/C=N/N5CCN6CCCCC6C5)c(O)c4c3C2=O)NC(=O)/C(C)=C\C=C\[C@H](C)[C@H](O)[C@@H](C)[C@@H](O)[C@@H](C)[C@H](OC(C)=O)[C@@H]1C,,,,MIC,0.08 µg/mL

Lines come from different laboratories, so protocols vary. A number after MIC or MFC names an inhibition level or a share of isolates. An empty or dashed field is not shown. MIC bound: limit read from a one-dose screen.